How the values were obtained:
WT v-Src = target: T1, WT v-Src (Rous sarcoma virus subgroup A, UniProt P00524, DEL77-225); experiment: biochemical
T1 construct: mutant of the v-Src catalytic domain, (the XD4 fragment) were made as glutathione S-transferase (GST) fusion proteins; made in house; host or cells: E. coli (DH5a), pGEX-KT

I338G v-Src = target: T2, I338G v-Src (Rous sarcoma virus subgroup A, UniProt P00524, DEL77-225/I338G); experiment: biochemical
T2 construct: screened against the catalytic domain of the target kinase, I338G v-Src; made in house; host or cells: E. coli DH5a, pGEX-KT

For `CC(C)(C)n1nc(-c2ccc3ccccc3c2)c2c(N)ncnc21` [Compound 6b, 4-amino-1-(tert-butyl)-3-(2′-naphthyl)pyrazolo[3,4-d]pyrimidine], which IC50 (WT v-Src) is on record?
The IC50 was 1000 nM.

And the IC50 (I338G v-Src)?
Its IC50 is 1.5 nM.

From US20030073218A1, “High affinity inhibitors for target validation and uses thereof” (Princeton University, priority 1999, published 2003)
